For two sequences, Kd results are on record in publication PMC10143992, “Interkingdom Signaling of the Insect Pathogen Photorhabdus luminescens with Plants Via the LuxR solo SdiA” (Microorganisms, 2023).

For at least one entry, the source does not settle the construct or the ends of the probe. Tags and fusion partners may be left off the protein sequences shown.

This data set has as its system T1, SdiA (LuxR solo, 6His-SdiA) (Photorhabdus luminescens DJC).
T1 sequence (looked up): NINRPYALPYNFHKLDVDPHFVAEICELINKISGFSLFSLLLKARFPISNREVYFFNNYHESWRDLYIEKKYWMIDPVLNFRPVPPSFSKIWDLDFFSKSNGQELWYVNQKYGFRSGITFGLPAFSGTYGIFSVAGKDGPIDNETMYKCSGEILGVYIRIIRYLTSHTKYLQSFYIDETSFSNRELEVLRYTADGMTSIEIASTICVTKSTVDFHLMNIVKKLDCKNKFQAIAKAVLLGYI
Kind of data set: SPR. To be noted: 3.3% (v/v) plant root exudate (PRE), SPR Biacore T200, SA chip, HBS-EP+ (10 mM HEPES pH 7.4, 150 mM NaCl, 3 mM EDTA, 0.005% Tween-20), SdiA 1.5625-200 nM, 30 uL/min, 1:1 fit, temperature not stated, recombinant protein, residues 1-241, label: 5' biotin on fwd strand, probe letters rebuilt from the primers and the genome. (In SPR one partner is held on a chip, and binding of the other changes the refractive index at the surface.)

The Kd is a measure of binding affinity in units of concentration. Consider “GACACCTCTTTACATATTTAAACTATTTATTGGGAATCGAAAGGTTATTTTGCTTACTCATTATTATTCTAATAACTTTCTTTTTATATAATTAACTATTAAAGTTGAAACAGCTACTGGGATAAATCATAGTTTATATGGGAAAATTACTCATATATTTATTAGGTATTGCTTCATATAG (double strand) [PaidA promoter fragment]”, for which, where the note is “ka 8.2e4 /M/s, kd 1.1e-3 /s”, the Kd is 13.3 nM.

As for “GATTATTAGGATTTCAATCCTATTGATATAATTTCCCCTGTTTACCAATAATACATTGTGATTTATCAGACATTGTTTCTGTATAACAGTAAATAATTATTTTCTTTATTAAATGTAAATTTTGCTACTATAATAAATATTAGGATTCACTATCAATATTCTTAATTTTCAAGAGGACATTGA (double strand) [PsdiA promoter fragment]”, for the setting “ka 1.8e5 /M/s, kd 2.0e-2 /s”, the dissociation constant (Kd) amounted to 109 nM.
